Compound potency records, mixed from different reports. Data source: NIAID ChemDB in PubChem.

Common to all: tests in culture; species: HIV-1; read by: cytopathic effect / XTT; read-out: fold resistance

Neighbouring rows are from separate reports. Fold resistance: result on the changed form divided by that on wild type.

compound	mutations	strain	cells	value
c1ccc2c(c1)sc1nccn12	RT-V108I	IIIB(THZ-R(I))	CEM + CEM-SS	>200
Cc1cn([C@H]2C[C@H](N=[N+]=[N-])[C@@H](CO)O2)c(=O)[nH]c1=O	RT-K65R	Site-directed mutant	MT-2	1.3
CCc1c(Sc2ccccn2)n(COCc2ccccc2)c(=O)[nH]c1=O	RT-A98G V108I	IIIB(TIBO-R(I))	CEM + CEM-SS	57
C/C=C/CSc1cc(NC(=S)c2ccsc2C)ccc1Cl	RT-M184I	3TC-RS (RT-M184I)	CEM + CEM-SS	0.5
Nc1nc(=O)n([C@@H]2CS[C@H](CO)O2)cc1F	RT-K65R	Site-directed mutant	MT-2	11
Cc1ccnc2c1NC(=O)c1cccnc1N2C1CC1	RT-D67N K70R L100I T215Y K219Q	4xAZT/L100I(RT-D67N K70R T215Y K219Q L100I)	CEM + CEM-SS	1.5
CCc1c(C(=O)c2cc(C)cc(C)c2)n(CC2CC=CC2)c(=O)[nH]c1=O	RT-V108I	NL4-3	CEM + CEM-SS	1.5
Cc1cn([C@H]2C[C@H](N=[N+]=[N-])[C@@H](CO)O2)c(=O)[nH]c1=O	RT-D67N K70R Y181C T215Y K219Q	4XAZT+Y181C (RT D67N K70R Y181C T215Y K219Q)	CEM + CEM-SS	40
Cc1cn([C@H]2C[C@H](N=[N+]=[N-])[C@@H](CO)O2)c(=O)[nH]c1=O	RT-D67N K70R Y181C T215Y K219Q	4XAZT/Y181C (RT D67N K70R Y181C T215Y K219Q)	CEM + CEM-SS	33.3
Fc1cccc(F)c1C1SCc2nc3ccccc3n21	RT-P236L	IIIB HEPT-resistant (RT P236L)	CEM + CEM-SS	0.2
Cc1cn([C@H]2C[C@H](N=[N+]=[N-])[C@@H](CO)O2)c(=O)[nH]c1=O	RT-Y181C	IIIB(DPS-R(III))	CEM + CEM-SS	2.7
CCc1c(Sc2ccccn2)n(COCc2ccccc2)c(=O)[nH]c1=O	RT-Y181C	UC781-R (RT-Y181C)	CEM + CEM-SS	155
O=[N+]([O-])c1ccccc1S(=O)(=O)c1ccccc1	RT-Y181C	IIIB(N119(III))	CEM + CEM-SS	>60
Cc1occc1C(=S)Nc1ccc(Cl)c(/C=N/OC(C)(C)C)c1	RT-K103N Y181C	Pyridinone-resistant (RT Y181C K103N)	CEM + CEM-SS	>500
CCc1c(Sc2ccccn2)n(COCc2ccccc2)c(=O)[nH]c1=O	RT-Y181C	IIIB	CEM + CEM-SS	113

A second listing of 2 rows from above:

compound,mutations,strain,cells,value
c1ccc2c(c1)sc1nccn12,RT-V108I,IIIB(THZ-R(I)),CEM + CEM-SS,>200
C/C=C/CSc1cc(NC(=S)c2ccsc2C)ccc1Cl,RT-M184I,3TC-RS (RT-M184I),CEM + CEM-SS,0.5